For this data set, the system named is Toxoplasma gondii tachyzoites of RH strain. As to the kind of experiment: Post-treatment recovery (washout) assay. It is filed as cell-based. The protocol:
NHDF monolayers in 12-well plates were infected with 5000 newly egressed tachyzoites from RH strain and then treated for 3 days with drug concentrations of 0.001 to 1 µM. After treatment, the medium with drugs was removed, and the cells were washed twice and incubated with a fresh medium without drugs for an additional 7 days to allow the remaining parasites (if still viable after treatment) to grow. The plates were then kept in an incubator at 37 °C in a humid atmosphere with 5% CO2 throughout the treatment.

For the molecule `CCc1nc(N)nc(N)c1C#CC(C)c1cc(OC)cc(-c2ccncc2)c1` (centres unmarked) [MMV1580844], the “Times more active than PYR” value is recorded as 100 and the “Times more active than trimetrexate” value was determined as 10.

These data come from article PMC10747034 (Tropical Medicine and Infectious Disease, 2023).
